Patent US5089479A, “Adhesion of Mycoplasma pneumoniae and Mycoplasma hominus to sulfatide” (priority 1988, dated 1992)

Tested on: M. pneumoniae
Experiment: M. pneumoniae adhesion to immobilized glycoproteins adsorbed on plastic
Format: binding, Mycoplasma pneumoniae strain M129
Settings: for M. pneumoniae adhesion to immobilized glycoprotein (in words): adsorbed on plastic
Protocol: Glycoproteins dissolved in 0.01 M sodium phosphate buffer, pH 7.4, containing 150 mM NaCl, 1 mM CaCl2, and 0.01% NaN3 were adsorbed onto plastic polyvinylchloride […] microtiter plates by incubation for 16 hours at 4° C. The unbound proteins were removed, and the wells were filled with tris-BSA and incubated for 30 minutes at room temperature. The wells were rinsed with RPMI1640 containing 25 mM HEPES, pH 7.3, and 1% bovine serum albumin. M. pneumoniae strain M129 labelled with [^3 H]-palmitate were dispersed in RPMI-BSA by passing four times through a 26 gauge needle, and 50 μl of the suspension was applied to the wells. After incubation for 60 minutes at 37° C., the wells were washed five times with saline and the labelled M. pneumoniae bound to the proteins were quantified by scintillation counting in Aquasol. […]
Adhesion of labelled M. pneumoniae to WiDr cells on glass cover slips was determined as described previously. For inhibition studies, dextran sulfate and 3'-sialyllactose were dissolved in RPMI-BSA and the pH was adjusted to 7.4 with NaOH. The inhibitors were added to wells containing washed cover slips with attached WiDr cells or blank cover slips preincubated in medium or tris-BSA. Labelled M. pneumoniae were added immediately and incubated with slow rocking for sixty minutes at 37° C. After the coverslips were washed by dipping six times in saline, bound M. pneumoniae were determined by scintillation counting in Aquasol. In FIG. 6, [^3 H]-labelled M. pneumoniae, 630,000 cpm/5×10^5 CCU, were incubated in microtiter wells coated in duplicate with laminin ( .circle. ) , fetuin (.largecircle.), hCG,, or transferrin (.quadrature.) at the indicated concentrations. After washing to remove the unbound organisms, the bound mycoplasma were determined by scintillation counting. Binding to uncoated wells was 3% of the applied radioactivity.
FIG. 7 illustrates the effect of neuraminidase treatment on M. pneumoniae binding to immobilized glycoproteins. Microtiter wells were coated with fetuin (circles), hCG (squares), or α-subunit of hCG (triangles) and treated for sixteen hours with 0.05 U/ml neuraminidase (Closed symbols) in sodium acetate buffer, pH 5.5, or buffer alone (open symbols). [^3 H]-labelled M. pneumoniae binding was determined as described above.
^1 Binding of [^3 H]-M. pneumoniae was determined to polyvinyl
chloride microtiter wells coated with 0.006 to 2 μg of the respective
proteins. Relative binding activities of the proteins were determined by
the amount of protein required to give half maximal binding of mycoplasma
and are expressed relative to fetuin which was assigned a value of 1.0.
Results are the mean values of 2 or 3 experiments.

Substance: hCG α-subunit: α-subunit of human chorionic gonadotropin
- M. pneumoniae adhesion to immobilized glycoprotein (in words): also promotes attachment
- M. pneumoniae adhesion to immobilized glycoprotein (in words) (listed as o-subunit of hCG): as active as the other glycoproteins
- M. pneumoniae adhesion to immobilized glycoprotein (in words) (listed as α-subunit of hCG): binds M. pneumoniae as well as the intact protein

Substance: hCG: human chorionic gonadotropin
- M. pneumoniae adhesion to immobilized glycoprotein (in words): dose dependent and saturable adhesion
- M. pneumoniae adhesion to immobilized glycoprotein (in words) (listed as human chorionic gonadotropin): promote dose-dependent and saturable adhesion
- Relative binding activity (relative to fetuin = 1.0, from amount for half maximal binding, mean of 2 or 3 experiments): 0.7
